The results in this text go back to ChEMBL document CHEMBL5606458, “ASAP - ZIKV NS2B-NS3 protease fluorescence single point” (2024).

Amino acid sequences for entries named in this document (tags omitted). Residues count along the entry.
UniProt A0A024AXB9, 1-66: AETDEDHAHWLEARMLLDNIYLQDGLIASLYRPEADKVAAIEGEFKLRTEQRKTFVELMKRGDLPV

The structures appear in SMILES notation. Only a part is listed here, and it is no random draw.

The target of the assay is Nonstructural protein 3 (Zika virus) (UniProt A0A024AXB9).

`O=c1[nH]c2ccccc2n1C1CCN(Cc2c[nH]c3ccccc23)CC1`: the inhibition reads like this: (PRVABC59, Concentration 49.5 uM, Number of replicates 2.0, Standard deviation 1.0391268411134233 %) 55.8%; (PRVABC59, Concentration 99.01 uM, Number of replicates 2.0, Standard deviation 0.0031235872368393786 %) 72%; (PRVABC59, Concentration 198.0 uM, Number of replicates 2.0, Standard deviation 0.014042655574253717 %) 84.5%.
